Reference: ChEMBL document CHEMBL5226308, “Amide-Amine Replacement in Indole-2-carboxamides Yields Potent Mycobactericidal Agents with Improved Water Solubility” (ACS Med Chem Lett, 2021)
Active and inactive are the calls of the source.

What was measured:
Conditions in all cases: time 5.0 day
[1] = tested on: Mycobacterium tuberculosis variant bovis; test: Antimycobacterial activity against Mycobacterium bovis BCG B33-2 harboring F255L mutant assessed as inhibition of bacterial growth incubated for 5 days by broth dilution method
[2] = tested on: Mycobacterium tuberculosis variant bovis; test: Antimycobacterial activity against Mycobacterium bovis BCG B47-4 harboring F644L mutant assessed as inhibition of bacterial growth incubated for 5 days by broth dilution method
[3] = tested on: Mycobacterium tuberculosis variant bovis; test: Antimycobacterial activity against Mycobacterium bovis BCG B47-2 harboring V681I mutant assessed as inhibition of bacterial growth incubated for 5 days by broth dilution method

Measured: Activity

O=C(NC1CCCCCCC1)c1cc2ccccc2[se]1
inactive: all assays above

c1ccc2[se]c(CNC3CCCCCCC3)cc2c1
inactive: all assays above

O=C(NC1CCCCCCC1)c1cc2ccccc2s1
inactive: all assays above
